Read-outs that look alike come from different tables or passages of the source.
B1: purified His-tagged B9-scFv (scFv)
VH: QVQLRESGPSLVKPSQTLSLTCTASGFSLSDKAVGWVRQAPGKALEWLGGIDTGGSTGYNPGLKSRLSITKDNSKSQISLSVSSVTTEDSATYYCTTVHQRDSCPYDSSHSQYCSYGWSCGVYNCRPAVWYRYGSCGTCDNLFSYVDAWGQGLLVTVSS
VL: QAVLNQPSSVSGSLGQRVSITCSGSSSNVGNGYVSWYQLIPGSAPRTLIYGDTSRASGVPDRFSGSRSGNTATLTISSLQAEDEADYFCASAEDSSSNAVFGSRTTLTVL
B2: B9-scFv displayed on the 293T cell surface (pBovShow) (scFv)
VH: QVQLRESGPSLVKPSQTLSLTCTASGFSLSDKAVGWVRQAPGKALEWLGGIDTGGSTGYNPGLKSRLSITKDNSKSQISLSVSSVTTEDSATYYCTTVHQRDSCPYDSSHSQYCSYGWSCGVYNCRPAVWYRYGSCGTCDNLFSYVDAWGQGLLVTVSS
VL: QAVLNQPSSVSGSLGQRVSITCSGSSSNVGNGYVSWYQLIPGSAPRTLIYGDTSRASGVPDRFSGSRSGNTATLTISSLQAEDEADYFCASAEDSSSNAVFGSRTTLTVL

Experiments:
[1] = molecular target: T1, SARS-CoV RBD (aa 319-591; Urbani variant), 8xHis-tagged (SARS-CoV Urbani, UniProt P59594); conditions: both partners purified
[2] = molecular target: SARS-CoV-2 Spike (Wu-Hu-1 + D614G) expressed on the 293T cell surface (SARS-CoV-2 Wuhan-Hu-1 + D614G, UniProt A0A6H1PJZ3, D614G); conditions: one partner purified
[3] = molecular target: full-length SARS-CoV Spike (Urbani variant) expressed on the 293T cell surface (SARS-CoV Urbani, UniProt P59594); conditions: one partner purified
[4] = molecular target: T1, SARS-CoV RBD (aa 319-591; Urbani …); assay: flow cytometry on cells; conditions: one partner purified

Row | Binder | Kd [1] [nM] | binding result [2] | EC50 [3] [nM] | Kd [4] [nM]
1 | B1 | 169 ± 22 | binds | 599 | 
2 | B2 |  |  |  | ~181
